Measurements from patent publication US6518061.

By UniProt entry, the sequences of proteins in these tests, tags left out. Where a name states a change or a piece, a line headed by the entry shows the natural chain unless it says otherwise.
UniProt P35225: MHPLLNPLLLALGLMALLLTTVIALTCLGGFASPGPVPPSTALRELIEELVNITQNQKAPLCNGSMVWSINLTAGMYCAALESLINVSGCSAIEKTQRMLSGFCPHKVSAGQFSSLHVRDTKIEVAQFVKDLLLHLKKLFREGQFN

Molecular target: IL-13 receptor (IL-13R) on human tumor cells (human)
Assay: cell-based or functional assay

hIL-13-PE4E (from UniProt P35225 33-146; P11439 26-638)
cytotoxic activity, fold better than hIL-13-PE38QQR: 2 fold
